Anti-infective test results gathered from many reports (values: NIAID ChemDB through PubChem).

Common to all: growth or infection tests; agent: HIV-1; read by: MTT; measure: EC50

ECn is the concentration giving n% inhibition of infection, replication or growth.

compound	mutations	strain or isolate	cells	value
Cc1cc(C)cc(C(=O)c2cccnc2Oc2ccccc2)c1		RES056	MT-4	>20.7 µM
CN1CCN(C(=O)N2CCN(C(=O)N(C)C)CC2)CC1		NL4-3	MT-4	>125 µg/mL
COP(=O)(C[C@H](NP(=O)(O)OC[C@@H]1C=C[C@H](n2cc(C)c(=O)[nH]c2=O)O1)C(=O)O)OC		IIIB	MT-4	4.26 µM
COc1ccc2c(Cc3c[nH]c4ccc(OC)cc34)c(OC(C)=O)ccc2c1			MT-4	28 µM
CC(C)=CCc1c(O)ccc(C2COc3c(CC=C(C)C)c(O)cc(O)c3C2=O)c1O		IIIB	MT-4	>20 µg/mL
C#Cc1ccc(Nc2nccc(Oc3c(C)cc(-c4cn(CCCC(=O)OC)nn4)cc3C)n2)cc1	K103N	IIIB	MT-4	0.79 µM
CC(=O)Oc1ccc2cc(Br)ccc2c1Cc1c(-c2ccccc2)[nH]c2ccccc12			MT-4	>8 µM
Cc1cn([C@H]2C[C@@H](N=[N+]=[N-])[C@@H](CO)O2)c(=O)[nH]c1=O		IIIB	MOLT-4	0.015 µM
CC(=O)Nc1ccc(-n2nc3ccccc3n2)cc1		IIIB	MT-4	>66 µM
CN(C)C(=O)N1CCN(C(=O)N(C)CCN2CCCCC2)CC1		NL4-3	MT-4	9.6 µg/mL
C[C@@H]1[C@H](O)[C@@H](CO)O[C@H]1n1cnc2c(=O)[nH]c(N)nc21			MT-4	>100 µM
C#Cc1ccc(Nc2nccc(Oc3c(C)cc(-c4cn(CC(=O)OC)nn4)cc3C)n2)cc1	K103N	IIIB	MT-4	6.64 µM
CC(=O)c1ccc(C)cc1NC(C(N)=O)c1c(Cl)cccc1Cl		IIIB	MAGI	0.045 µM
Cn1ncc2c1S(=O)(=O)N(CCc1ccccc1)C(=O)N2CCC#N		IIIB	MT-4	>251.4 µM
Cc1cc(/C=C/C#N)cc(C)c1Oc1nc(Nc2ccc(N3CCCC(NS(N)(=O)=O)C3)cc2)nc2sccc12	F227L V106A	IIIB	MT-4	3.369 µM
COc1c(CC=C(C)C)cc(C2CC(=O)c3c(O)cc(O)cc3O2)c(CC=C(C)C)c1O		IIIB	MT-4	>20 µg/mL
C#Cc1ccc(Nc2nccc(Oc3c(C)cc(-c4cn(CC(=O)Nc5ccc(F)cc5)nn4)cc3C)n2)cc1		IIIB	MT-4	1.66 µM
COc1ccc2ccc(OC(C)=O)c(Cc3c[nH]c4ccccc34)c2c1			MT-4	27 µM
Cc1cn([C@@H]2CC[C@H](CO)[Se]2)c(=O)[nH]c1=O		IIIB	MT-4	>100 µM
COc1ccc2c(Cc3c(-c4ccccc4)[nH]c4ccccc34)c(OC(C)=O)ccc2c1			MT-4	>19 µM
O=C1CC(c2ccc(O)cc2)Oc2cc(O)ccc21		IIIB	MT-4	>100 µg/mL
Cc1cn([C@H]2C[C@H](N=[N+]=[N-])[C@@H](CO)O2)c(=O)[nH]c1=O		NL4-3	MT-4	0.0007 µg/mL
CC(C)=CCOc1ccc([C@@H]2COc3c(ccc4c3C=CC(C)(C)O4)C2)c(O)c1		IIIB	MT-4	>100 µg/mL
Cc1ccnc2c1NC(=O)c1cccnc1N2C1CC1	Y181C	IIIB	MT-4	>15.02 µM
Cc1cn([C@H]2C[C@H](N=[N+]=[N-])[C@@H](CO)O2)c(=O)[nH]c1=O			CEM.SS + MT-4	0.157 µg/mL
Cc1cn([C@H]2C=C[C@@H](COP(=O)(O)O)O2)c(=O)[nH]c1=O		IIIB	MT-4	0.39 µM
O=C(NCCc1ccc(F)cc1)C1C(=O)N(O)C(=O)c2ccccc21			MT-4	9.39 µM
Cc1cn([C@H]2C=C[C@@H](COP(=O)(O)N(CC(=O)O)CC(=O)O)O2)c(=O)[nH]c1=O		IIIB	MT-4	0.31 µM
O=c1ccn([C@H]2CC[C@H](CO)[Se]2)c(=O)[nH]1		IIIB	MT-4	>100 µM
COc1ncccc1C(=O)c1cc(C)cc(C)c1		IIIB	MT-4	>7.34 µM
Cn1ncc2c1S(=O)(=O)N(CCc1ccccc1)C(=O)N2CCc1cccc(Cl)c1		IIIB	MT-4	>300.1 µM
Cc1cc(C)cc(C(=O)c2cccnc2Nc2ccc(C(N)=O)cc2)c1		IIIB	MT-4	>36.42 µM
C/C(=C\Cc1c(O)cc(O)c2c(=O)c(-c3ccc(O)cc3)coc12)CO		IIIB	MT-4	>20 µg/mL
Cn1ncc2c1S(=O)(=O)N(CCc1ccc(Br)cc1)C(=O)N2CCc1ccc(Br)cc1		IIIB	MT-4	>151.2 µM
CCN(CC)C(=O)N1CCN(C(=O)N(C)CCN2CCCCC2)CC1		NL4-3	MT-4	11.2 µg/mL
Cc1cc(C#N)cc(C)c1Oc1nc(Nc2ccc(C#N)cc2)nc(N)c1Br		IIIB	MT-4	0.0018 µM
O=C(NCc1ccc(F)cc1)C1C(=O)N(O)C(=O)c2cc(F)ccc21			MT-4	>0.72 µM
O=c1[nH]cnc2c1ncn2[C@H]1CC[C@@H](CO)O1	RT-L74V	ADP144 (RT-L74V)	MT-4	0.6 µg/mL
Cc1cc(C)cc(C(=O)c2cccnc2Nc2cccnc2)c1		RES056	MT-4	>41.63 µM
CCCCCCCCCCCCNC(=O)C1C(=O)N(O)C(=O)c2ccccc21			MT-4	>18.55 µM
Cc1cc(-c2cccc(C#N)c2)cc(C)c1Nc1ccnc(Nc2ccc(C#N)cc2)n1	Y188L RT mutation		MT-4	>9.2 µM
CCCCOC(=O)N1CCN(C(=O)N(C)C)CC1		NL4-3	MT-4	>39.3 µg/mL
CC(=O)Oc1ccc2cc(Br)ccc2c1Cc1c[nH]c2ccccc12			MT-4	>19 µM
Cn1ncc2c1S(=O)(=O)N(CCc1ccccc1)C(=O)N2CCc1ccc(Br)cc1		IIIB	MT-4	>6.7 µM
COc1c2c(cc3c1CCC(C)(C)O3)OC[C@@H](c1ccc(O)c(CC=C(C)C)c1O)C2		IIIB	MT-4	>10 µg/mL
Cc1cn([C@H]2CC[C@H](CO)[Se]2)c(=O)[nH]c1=O		IIIB	MT-4	>100 µM
O=C(NC1CCCC1)C1C(=O)N(O)C(=O)c2ccccc21			MT-4	27.56 µM
CC(C)=CCc1c(O)cc2occ(-c3ccc4c(c3O)C=CC(C)(C)O4)c(=O)c2c1O		IIIB	MT-4	>20 µg/mL
N#CCN1C(=O)N(Cc2ccccc2)S(=O)(=O)c2cscc21		IIIB	MT-4	0.9 µM
c1cc(CN2CCCNCCNCCCNCC2)ccc1CN1CCCNCCNCCCNCC1			MT-4	0.001 µg/mL
NC(=O)c1ncn([C@@H]2O[C@H](CO)[C@@H](O)[C@H]2O)n1			MT-4	>31 µM
Cc1ccnc2c1NC(=O)c1cccnc1N2C1CC1		IIIB	MT-4	0.31 µM
COc1ccc(OC)c2c1c(/C(O)=C/C(=O)C(=O)O)cn2Cc1ccc(F)cc1		IIIB	MT-4	2.13 µM
Cc1cn([C@H]2C[C@H](N=[N+]=[N-])[C@@H](CO)O2)c(=O)[nH]c1=O			MT-4	0.01 µM

An empty or dashed field is not shown. Lines come from different laboratories, so protocols vary.